Anti-infective test results gathered from many reports (values: NIAID ChemDB through PubChem).

Common to all: tests in culture; organism: Mycobacterium tuberculosis

MIC bound comes from a single tested concentration. Rows are shuffled and stem from different studies. Blank or dashed fields: not listed here. Inhibition is in % at the dose shown (toxicity tests: loss of growth or viability). ECn: concentration that inhibits the pathogen or its effect by n%. A number after MIC or MFC names an inhibition level or a share of isolates.

smiles,cell line,dose,read-out,strain or isolate,method,setting,result
O=C1c2cc(F)ccc2-n2c1nc1cc(F)ccc1c2=O,,,MIC,H37Rv,,,<0.5 µg/mL
Cc1ccc(C2=NN(C(=O)c3ccncc3)C(O)(C(F)(F)F)C2)cc1,,,MIC,H37Rv,,,2.23 µM
CCCc1ccc(-c2cc(CN3CCOCC3)c(C)n2-c2ccc(OC)cc2)cc1,,,MIC90,H37Rv,,,28.82 µM
C=C/C(C)=C/[C@@]1(C)SC(=O)C(C)=C1O,,,MIC,PMH29:kasA/inhA,,,30 µg/mL
Cc1c(F)c(N2CCNC(C)C2)cc2c1c(=O)c(C(=O)O)cn2C1CC1,,,Mean MIC,44 isolates (resistant),,,1.189 µg/mL
CC1(C)OC2OC(C(CCO)NC3CC3)[C@@H](OCc3ccccc3)C2O1,,,MIC,H37Ra,,,50 µg/mL
C=CCNc1nc(NC(=O)OCC)cc(NC(=O)OCC)c1[N+](=O)[O-],,12.5 µg/mL,inhibition,H37Rv,,,0%
CO[C@H]1/C=C/O[C@@]2(C)Oc3c(C)c(O)c4c(O)c(c5c(c4c3C2=O)NC2(CCN(CC(C)C)CC2)N=5)=NC(=O)/C(C)=C\C=C\[C@H](C)[C@H](O)[C@@H](C)[C@@H](O)[C@@H](C)[C@H](OC(C)=O)[C@@H]1C,,,MIC,H37Rv,,,0.015 µg/mL
CCOC(=O)Nc1cc(N)c2c(n1)OCC(c1ccc(OC)cc1)=N2,,12.5 µg/mL,inhibition,H37Rv,,,0%
C=CCn1c(-c2cc3cc(Br)ccc3oc2=O)cs/c1=N\N=C\c1ccc(O)c(OCC)c1,,12.5 µg/mL,inhibition,H37Rv,,,91%
CN1CCN(c2c(F)cc3c(c2F)-n2c(nc4ccccc4c2=O)C3=O)CC1,,,MIC,H37Rv,,,>5 µg/mL
C[C@H]1COc2c(N3CCN(C)CC3)c(F)cc3c(=O)c(C(=O)O)cn1c23,,,MIC50,206 isolates (susceptible),,,0.5 µg/mL
NC(=O)c1cnc(Cl)cn1,,,MIC,ATCC 35828,,,8 µg/mL
CCc1ccc(-c2cc(CN3CCOCC3)c(C)n2-c2ccc(OC)cc2)cc1,,,MIC90,H37Rv,,,54.66 µM
CC1COc2c(N3CCN(C)CC3)c(F)cc3c(=O)c(C(=O)O)cn1c23,,,MIC,Clinical isolate unspecified,resazurin,clinical isolate,0.5 µM
CCCCCn1cnc2c1S(=O)(=O)N(C)C(NC(=O)c1ccccc1)=N2,,6.25 µg/mL,inhibition,H37Rv,resazurin,,3%
N#C/C(=C\c1c(Cl)cccc1Cl)n1nnc2ccccc21,,,MIC90,ATCC 27294,,,22.2 µM
O=C(c1ccncc1)N1N=C(c2ccco2)CC1(O)C(F)(F)F,,,MIC,RGH101,,,38.46 µM
CN(CNC(=O)c1cnccn1)Cc1ccccc1,,,MIC,PZA-resistant,,,100 µg/mL
O=C(O)c1ccccc1O,,200 µM,inhibition,7800,,,35%
CN[C@@H]1[C@H](O[C@H]2[C@H](O[C@H]3[C@H](O)[C@@H](O)[C@H](N=C(N)N)[C@@H](O)[C@@H]3N=C(N)N)O[C@@H](C)[C@]2(O)C=O)O[C@@H](CO)[C@H](O)[C@H]1O,,,MIC,9247 (streptomycin isoniazid-R),,,>1280 µg/mL
O=C1c2ccccc2-n2c1nc1ccc(Cl)cc1c2=O,,,MIC,MDR 10038,,,2 µg/mL
Cn1c(O)c(N=NC(=O)Cc2c[nH]c3ccccc23)c2ccccc21,,,MIC bound,H37Rv,BACTEC,,>12.8 µg/mL
CCCCCCCCCCCCCCCCCCC1OC2OC(C)(C)OC2[C@@H]1OCc1ccccc1,,,MIC,H37Ra,,,25 µg/mL
Cc1cc(NC(=O)SCCOC(=O)COc2ccc(Cl)cc2)ccc1Cl,,12.5 µg/mL,inhibition,H37Rv,BACTEC,,0%
CCCCN(CCCC)CNC(=O)c1cnc(C)cn1,,,MIC,PZA-resistant,,,100 µg/mL
Cc1sc(/N=C/C2=C(O)CC(C)(C)CC2=O)nc1-c1ccccc1,,,MIC bound,H37Rv,resazurin,,>6.25 µg/mL
COc1ccc(/C=C(\C#N)n2nnc3ccccc32)cc1,,,MIC50,ATCC 27294,,,70 µM
O=c1oc2ccccc2cc1-c1cs/c(=N\N=C\c2cc(Br)ccc2O)n1-c1ccccc1,,12.5 µg/mL,inhibition,H37Rv,,,0%
COc1ccc(-c2cc(CN3CCOCC3)c(C)n2-c2ccc(F)cc2)cc1,,,MIC90,H37Rv,,,>13.4 µM
O=C(NCCCOC(=O)CCCCCCCCC(=O)OCCCNC(=O)NC(=O)c1c[nH]c(=O)[nH]c1=O)NC(=O)c1c[nH]c(=O)[nH]c1=O,,12.5 µg/mL,inhibition,H37Rv,BACTEC,,3%
Cc1ccc(C2=NN(C(=O)c3ccncc3)C(O)(C(Cl)(Cl)Cl)C2)cc1,,,MIC,RGH103,,,>252 µM
C[C@@H]1Oc2nc([N+](=O)[O-])cn2C[C@@H]1OCc1ccc(OC(F)(F)F)cc1,,,MIC,H37Rv-T3,absorbance,,>100 µM
Cc1nsc(N(NC(=O)c2ccccc2)C(=O)c2ccccc2)n1,,12.5 µg/mL,inhibition,H37Rv,BACTEC,,-2%
CCn1c(-c2cc3cc(Br)ccc3oc2=O)cs/c1=N\N=C\c1ccc(Cl)cc1,,,MIC,H37Rv,,,>12.5 µg/mL
CCN(CC)CCNc1ccc(C)c2sc3cccc(O)c3c(=O)c12,VERO,,MIC,H37Rv,BACTEC,,6.25 µg/mL
CC(C)(C)OC(=O)N1CCN(c2ccc3c(c2)-n2c(nc4ccccc4c2=O)C3=O)CC1,,,MIC,MDR 10038,,,>5 µg/mL
CCOC(=O)Nc1cc2[nH]c(-c3ccc(Oc4ccccc4)cc3)nc2c(N(CCc2ccccc2)Cc2ccccc2)n1,,,EC50,H37Rv,,,<12.5 µg/mL
CN(C)CC=C(c1ccccc1)c1ccc(-c2ccc(Br)cc2)cc1,,,MIC,H37Rv,,,10 µg/mL
Cc1ccc(C)n1-c1ccc(S(=O)(=O)c2ccc(NC(=O)CCC(=O)O)cc2)cc1,,,MIC bound,H37Rv,resazurin,,>6.25 µg/mL
N#C/C(=C/c1ccccc1Br)n1nnc2ccccc21,,,MIC50,ATCC 27294,,,9 µM
CCOP1(=O)O[C@@H](c2ccccc2)[C@@H](C)N1C,,,MIC bound,H37Rv,BACTEC,,>12.5 µg/mL
O=C1c2cc(F)cc(F)c2-n2c1nc1ccccc1c2=O,,,MIC,MDR 10038,,,1 µg/mL
O=C(/C=C/c1ccc(Cl)cc1)c1ccccc1O,,,EC50,,,,<12.5 µg/mL
N#C/C(=C\c1ccccc1F)n1nnc2ccccc21,,,MIC90,ATCC 27294,,,89.4 µM
Cc1cnc(C(=O)NCN2CCCC2)cn1,,,MIC,PZA-susceptible,,,100 µg/mL
CN(C)C/C=C(\c1ccc(O)cc1)c1ccc(-c2ccc(Br)cc2)cc1,,,MIC,H37Ra,,,39 µg/mL
CCCCCCCCCCCCCCCCCCNC(CCO)[C@H]1OC2OC(C)(C)OC2C2OC(C)(C)OC21,,,MIC,H37Ra,,,3.12 µg/mL
NNC(=O)c1ccc(-n2nnc(C(=O)NN)c2C(=O)NN)cc1,,12.5 µg/mL,inhibition,H37Rv,BACTEC,,0%
O=C1CC(c2ccc(Br)cc2)Oc2ccccc21,,,EC50,H37Rv,,,>12.5 µg/mL
CC1=NN(C(=O)c2ccncc2)C(O)(C(F)(F)F)C1,,,MIC,RGH104,,,5.71 µM
O=c1ccc2ncccc2n1CCN1CCC(NCc2cc(Cl)c(Cl)cn2)CC1,,,MIC,BCG,resazurin,,0.12 µg/mL
O=[N+]([O-])[O][Ga]([O][N+](=O)[O-])[O][N+](=O)[O-],,375 µM,inhibition,H37Ra,,inside macrophages,90%
Cc1c[nH]c(C(=O)NN)c1-c1ccc2c(-c3ccccc3)nc3ccccc3n12,,,EC50,H37Rv,,,<12.5 µg/mL
COc1cccc(/C=C(\C#N)n2nnc3ccccc32)c1,,,MIC90,ATCC 27294,,,>100 µM
CCCCCCCCCCCCNC(CCO)C1OC2OC(C)(C)OC2[C@@H]1OCc1ccccc1,,,MIC,H37Rv,,,3.12 µg/mL
CN(C)C/C=C(/c1ccc(Br)cc1)c1ccc(-c2ccc(Br)cc2)cc1,,,MIC,ALI 3415,,,17 µg/mL
CCCCCCCNC(CCO)C1OC2OC(C)(C)OC2[C@@H]1OC,,,MIC,H37Rv,,,50 µg/mL
O=C(CCC(=O)Nc1ccc2[nH]c3ccccc3c(=O)c2c1)Nc1ccc2[nH]c3ccccc3c(=O)c2c1,,,MIC bound,H37Rv,BACTEC,,>12.5 µg/mL
CN(C)C/C=C(/c1ccccc1)c1ccc(-c2ccc(Br)cc2)cc1,,,MIC,H37Ra,,,10 µg/mL
CC(=O)Oc1ccccc1C(=O)Nc1ncc([N+](=O)[O-])s1,,,MIC,T spoligotype 53,visual reading,,18.7 µg/mL
Cc1c(CN2CCOCC2)cc(-c2ccc(C(C)C)cc2)n1-c1ccc(Cl)cc1,,,MIC90,H37Rv,,,24.74 µM
NC(=O)c1cc(NC(=O)c2ccc(C(=O)Nc3cc(C(N)=O)cc(C4=NCCN4)c3)cc2)cc(C2=NCCN2)c1,,6.25 µg/mL,inhibition,H37Rv,resazurin,,3%
CO[C@H]1/C=C/O[C@@]2(C)Oc3c(C)c(O)c4c(O)c(c(/C=N/N5CCN(C6CCCC6)CC5)c(O)c4c3C2=O)NC(=O)/C(C)=C\C=C\[C@H](C)[C@H](O)[C@@H](C)[C@@H](O)[C@@H](C)[C@H](OC(C)=O)[C@@H]1C,,,MIC,H37Rv (streptomycin-resistant),,,2.5 µg/mL
C[C@H]1COc2c(N3CCN(C)CC3)c(F)cc3c(=O)c(C(=O)O)cn1c23,,,MIC,35 strains,,,16 µg/mL
C=CCn1c(-c2cc3cc(Br)ccc3oc2=O)cs/c1=N\N=C\c1ccc(Cl)cc1,,,EC50,H37Rv,,,<12.5 µg/mL
Cc1c[nH]c(C(=O)O)c1-c1cc2c(-c3ccccc3)nc3ccccc3n2c1,,,EC50,H37Rv,,,>12.5 µg/mL
Cc1cc2cccnc2c2ncccc12,,,MIC,H37Rv,BACTEC,,3.13 µg/mL
CCCCCCCCCCCCCCCCNC(CCO)C1OC2OC(C)(C)OC2[C@H]1OC,,,MIC,H37Rv,,,12.5 µg/mL
CCCCn1c(-c2cc3ccccc3oc2=O)cs/c1=N\N=C\c1ccc(Cl)cc1,,,EC50,H37Rv,,,<12.5 µg/mL
COc1cc2oc(-c3ccc(O)cc3)cc(=O)c2c(OC)c1OC,,12.5 µg/mL,inhibition,H37Rv,BACTEC,,70%
N#C/C(=C\c1ccc(C(F)(F)F)cc1C(F)(F)F)n1nnc2ccccc21,,,MIC90,ATCC 27294,,,24.4 µM
CCCCCCCCCCCCCCCCNC(CCO)[C@@H]1OC2OC(C)(C)OC2C2OC(C)(C)OC21,,,MIC,H37Ra,,,12.5 µg/mL
O=C(O)C1CCC(C(=O)O)SS1,,12.5 µg/mL,inhibition,H37Rv,BACTEC,,7%
CCOC(=O)Nc1cc(Cl)c2n[nH]nc2n1,,,EC50,H37Rv,,,>12.5 µg/mL
Cc1cccc2nc3n(c(=O)c12)-c1ccc(F)cc1C3=O,,,MIC,MDR 10038,,,1 µg/mL
CN(C)CC=C(c1ccc(Br)cc1)c1ccc(-c2ccc(Br)cc2)cc1,,,MIC,ALI 536,,,≤4 µg/mL
CCN(CC)CNC(=O)c1cnccn1,,,MIC,MS6210,,,100 µg/mL
CCOC(=O)Nc1cc(NC(=O)OCC)c2c(c1C)NC(C)C(c1ccccc1)=N2,,,EC50,H37Rv,,,>12.5 µg/mL
N=C1C=C(N)C(=O)c2ccccc21,,,MIC bound,H37Rv,BACTEC,,≤12.5 µg/mL
Cc1ccc2nc3n(c(=O)c2c1)-c1ccc(F)cc1C3=O,,,MIC,H37Rv,,,1 µg/mL
O=C1CC(c2ccccc2)Oc2ccc(F)cc21,,,EC50,H37Rv,,,>12.5 µg/mL
C1=NCCCCCCCN=Cc2ccccc2NCCNc2ccccc21,,12.5 µg/mL,inhibition,H37Rv,BACTEC,,14%
CCOC(=O)c1[nH]cc(C)c1-c1cc2c(-c3ccccc3)nc3ccccc3n2c1,,,MIC,H37Rv,,,<12.5 µg/mL
Cc1ccccc1NC(=O)/C(=N\NC(=O)CC#N)C1C(=O)N(c2ccccc2)N=C1N,,,MIC bound,H37Rv,resazurin,,>6.25 µg/mL
Cc1cccc2c(=O)n3c(nc12)C(=O)c1cc(F)ccc1-3,,,MIC,H37Rv,,,5 µg/mL
COc1cccc2c1CCc1sc(CN3CCN(C)CC3)nc1-2,,,MIC bound,H37Rv,resazurin,,>6.25 µg/mL
CCCCCCCCCCCCCNC(CCO)[C@H]1OC2OC(C)(C)OC2C2OC(C)(C)OC21,,,MIC,H37Ra,,,12.5 µg/mL
CN1C2=NCCN2C(=O)c2cc(Cl)ccc21,,12.5 µg/mL,inhibition,H37Rv,BACTEC,,0%
COc1ccc(C(=O)/C=C/c2cccnc2)cc1,,,EC50,,,,>12.5 µg/mL

Again, the opening 8 rows:

O=C1c2cc(F)ccc2-n2c1nc1cc(F)ccc1c2=O ; read-out: MIC ; strain or isolate: H37Rv ; result: <0.5 µg/mL
Cc1ccc(C2=NN(C(=O)c3ccncc3)C(O)(C(F)(F)F)C2)cc1 ; read-out: MIC ; strain or isolate: H37Rv ; result: 2.23 µM
CCCc1ccc(-c2cc(CN3CCOCC3)c(C)n2-c2ccc(OC)cc2)cc1 ; read-out: MIC90 ; strain or isolate: H37Rv ; result: 28.82 µM
C=C/C(C)=C/[C@@]1(C)SC(=O)C(C)=C1O ; read-out: MIC ; strain or isolate: PMH29:kasA/inhA ; result: 30 µg/mL
Cc1c(F)c(N2CCNC(C)C2)cc2c1c(=O)c(C(=O)O)cn2C1CC1 ; read-out: Mean MIC ; strain or isolate: 44 isolates (resistant) ; result: 1.189 µg/mL
CC1(C)OC2OC(C(CCO)NC3CC3)[C@@H](OCc3ccccc3)C2O1 ; read-out: MIC ; strain or isolate: H37Ra ; result: 50 µg/mL
C=CCNc1nc(NC(=O)OCC)cc(NC(=O)OCC)c1[N+](=O)[O-] ; dose: 12.5 µg/mL ; read-out: inhibition ; strain or isolate: H37Rv ; result: 0%
CO[C@H]1/C=C/O[C@@]2(C)Oc3c(C)c(O)c4c(O)c(c5c(c4c3C2=O)NC2(CCN(CC(C)C)CC2)N=5)=NC(=O)/C(C)=C\C=C\[C@H](C)[C@H](O)[C@@H](C)[C@@H](O)[C@@H](C)[C@H](OC(C)=O)[C@@H]1C ; read-out: MIC ; strain or isolate: H37Rv ; result: 0.015 µg/mL